Results deposited as PubChem BioAssay AID624099 (ICCB-Longwood, 2012)
Here is an unselected part of about 21,000 reagents. 497 of them (2.4%) count as active. 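Higher z means weaker E2 silencing; only reporter increases were scored, and knock-downs that hurt cell survival may mask genuine repressor factors.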 Entries without a mark were called inactive. No sequences are given here.

Purpose: 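Host factors E2 relies on to silence an HPV18 LCR reporter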 (primary screen)
Cells: human C33A cervical carcinoma cells (HPV-negative) stably expressing BPV1 E2 and an HPV18 LCR luciferase reporter
Reagent: siRNA pool against human genes, 40 nM
Time to read-out: 72 h
Measurement: 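HPV18 LCR reporter light per well, converted to plate-wise z-scores that exclude control wells, and averaged over triplicate plates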
Scale: mean z-score and z-score: higher = stronger reporter signal, weaker E2 silencing
Active means: 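Hit if mean z-score reaches 2 and two or more of three replicate z-scores also reach 2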

STX16
- mean z-score: 1.31
- z-score, replicate A: 1.32
- z-score, replicate B: 1.32
- z-score, replicate C: 1.3

NYAP1
- mean z-score: -2.4
- z-score, replicate A: -2.36
- z-score, replicate B: -2.44
- z-score, replicate C: -1.72

RUNDC3B
- mean z-score: 0.37
- z-score, replicate A: 0.06
- z-score, replicate B: 0.69
- z-score, replicate C: 0.35

AFP
- mean z-score: 2.29 (active)
- z-score, replicate A: 2.32
- z-score, replicate B: 2.24
- z-score, replicate C: 2.32

PP13004 (retired record)
- mean z-score: -1.2
- z-score, replicate A: -1.54
- z-score, replicate B: -1.15
- z-score, replicate C: -0.9

LOC402434 (retired record)
- mean z-score: -0.43
- z-score, replicate A: -0.41
- z-score, replicate B: -0.27
- z-score, replicate C: -0.6

CSPG4P5
- mean z-score: 0.65
- z-score, replicate A: 0.58
- z-score, replicate B: 0.81
- z-score, replicate C: 0.57

PAQR4
- mean z-score: 2.4 (active)
- z-score, replicate A: 2.25
- z-score, replicate B: 2.73
- z-score, replicate C: 2.24

PCP4
- mean z-score: -0.68
- z-score, replicate A: 2.95
- z-score, replicate B: 2.84
- z-score, replicate C: -7.83

GJA3
- mean z-score: 0.12
- z-score, replicate A: 0.19
- z-score, replicate B: 0.34
- z-score, replicate C: -0.16

UMOD
- mean z-score: 0.49
- z-score, replicate A: 0.47
- z-score, replicate B: 0.58
- z-score, replicate C: 0.43

ENTPD6
- mean z-score: -0.25
- z-score, replicate A: -0.26
- z-score, replicate B: -0.16
- z-score, replicate C: -0.33

ROS1
- mean z-score: -0.46
- z-score, replicate A: -0.68
- z-score, replicate B: -0.21
- z-score, replicate C: -0.49

VWA7
- mean z-score: 1.4
- z-score, replicate A: 1.54
- z-score, replicate B: 1.38
- z-score, replicate C: 1.29

Limited to “z-score, replicate B” (2 entries from above):
UMOD: 0.58
ENTPD6: -0.16
